For experiment [1], the system named is Vancomycin resistant E. faecium ATCC 700221.
Experiment [2] relates to ciprofloxacin resistant E. faecium.
Experiment [3] concerns sensitive and resistant gram-positive bacteria. The note with it: at 4× and 8× MIC concentration.
Experiment [4] concerns Macrolide resistant S. aureus ATCC BAA976.

Each structure is given as a SMILES string. Like-named read-outs stand apart in the source and are kept apart here.

As for `CC1(C)C2CN(c3ccc4nc5ccc(N6CC7C(C6)C7(C)C)cc5[s+]c4c3)CC21` (stereo not shown) [Compound 1, 3,7-Di(6,6-dimethyl-3-azabicyclo[3.1.0]hexan-N-yl)phenothiazinium iodide], the “Single step resistance frequency” value in experiment [1] (Vancomycin resistant E. faecium ATCC 700221, at 4X MIC) is 2 × 10^−9; in experiment [1] (Vancomycin resistant E. faecium ATCC 700221, at 8X MIC), 2 × 10^−9; with MDR S. aureus ATCC BAA44 (MDR S. aureus ATCC BAA44, at 4X MIC), 5 × 10^−10; with MDR S. aureus ATCC BAA44 (MDR S. aureus ATCC BAA44, at 8X MIC), 5 × 10^−11; in experiment [2] (at 4X MIC), 2 × 10^−9; in experiment [2] (at 8X MIC), 2 × 10^−9. The “Single step resistance frequency” value in experiment [3] is listed as “less than 10^−9”; in experiment [4] (Macrolide resistant S. aureus ATCC BAA976, at 4X MIC) it was 8 × 10^−10; in experiment [4] (Macrolide resistant S. aureus ATCC BAA976, at 8X MIC), 8 × 10^−11; with MSSA ATCC 25923 (MSSA ATCC 25923, at 4X MIC), 2 × 10^−9; in the experiment with MSSA ATCC 25923 (MSSA ATCC 25923, at 8X MIC), 2 × 10^−10; with MRSA ATCC 43300 (MRSA ATCC 43300, at 4X MIC), 1.5 × 10^−9. The “Single step resistance frequency” value in the experiment on MRSA ATCC 43300 (MRSA ATCC 43300, at 8X MIC) is 1.5 × 10^−10.

The values are drawn from US20240300940A1, “Phenothiazinyl Compounds and Uses” (Prosetta Biosciences, Inc., priority 2023, published 2024).
